Anti-infective test results gathered from many reports (values: NIAID ChemDB through PubChem).

All rows: whole-cell or culture tests; organism: Staphylococcus aureus

Two numbers with a dash give a range or band.

SMILES | method | strain | read-out | value
NC1CCN(c2c(F)cc3c(=O)c(C(=O)O)cn(C4CC4)c3c2Cl)C1 | - | 20 strains (oxacillin-susceptible) | MIC50 | 0.015 µg/mL
CO[C@H]1/C=C/O[C@@]2(C)Oc3c(C)c(O)c4c(O)c(c5c(c4c3C2=O)NC2(CCN(CC(C)C)CC2)N=5)=NC(=O)/C(C)=C\C=C\[C@H](C)[C@H](O)[C@@H](C)[C@@H](O)[C@@H](C)[C@H](OC(C)=O)[C@@H]1C | - | 16 strains (methicillin- quinolone-resistant) | MIC90 | 2 µg/mL
CN1CCN(c2c(F)cc3c(=O)c(C(=O)O)cn(C4CC4)c3c2Cl)CC1 | - | 422 | MIC | 0.06 µg/mL
CO/N=C1\CN(c2nc3c(cc2F)c(=O)c(C(=O)O)cn3C2CC2)CC1CN | - | 24 strains (ofloxacin-susceptible) | MIC90 | 0.06 µg/mL
CN(C)[C@@H]1C(=O)C(C(N)=O)=C(O)[C@@]2(O)C(=O)C3=C(O)c4c(O)c(NC(=O)CN5CCOCC5)cc(F)c4C[C@H]3C[C@@H]12 | agar diffusion | 101-29213 | MIC | 4 µg/mL
CC(=O)NC[C@H]1CN(c2ccc(N3CCOCC3)c(F)c2)C(=O)O1 | - | Oxacillin-susceptible | MIC90 | 1–4 µg/mL
N[C@@H]1CN(c2c(F)cc3c(=O)c(C(=O)O)cn([C@@H]4C[C@@H]4F)c3c2Cl)CC12CC2 | - | 25 strains (ofloxacin-resistant) | MIC50 | 1 µg/mL
CC1CN(c2c(Cl)cc3c(=O)c(C(=O)O)cn(C4CC4)c3c2Cl)CCN1 | - | 133 | MIC | 0.125 µg/mL
CO[C@H]1/C=C/O[C@@]2(C)Oc3c(C)c(O)c4c(O)c(c(/C=N/N5CCN(C)CC5)c(O)c4c3C2=O)NC(=O)/C(C)=C\C=C\[C@H](C)[C@H](O)[C@@H](C)[C@@H](O)[C@@H](C)[C@H](OC(C)=O)[C@@H]1C | - | ATCC 29213 | MIC | 0.0078 µg/mL
Cc1onc(-c2ccccc2)c1C(=O)N[C@@H]1C(=O)N2[C@@H]1SC(C)(C)[C@@H]2C(=O)O | - | 25 strains (methicillin-susceptible) | MIC50 | 0.5 µg/mL
O=C(O)c1cn(C2CC2)c2c(F)c(N3CCNCC3)c(Cl)cc2c1=O | - | 422 | MIC | 0.25 µg/mL
C[C@H]1COc2c(N3CCN(C)CC3)c(F)cc3c(=O)c(C(=O)O)cn1c23 | - | 24 strains (ofloxacin-susceptible) | MIC50 | 0.25 µg/mL
O=C(O)c1cn(C2CC2)c2c(Cl)c(N3CCNCC3)c(F)cc2c1=O | - | 1756 | MIC | 0.125 µg/mL
CN(C)c1ccc(O)c2c1C[C@H]1C[C@H]3[C@H](N(C)C)C(=O)C(C(N)=O)=C(O)[C@@]3(O)C(=O)C1=C2O | - | 25 strains (methicillin-susceptible) | MIC90 | 0.12 µg/mL
O=C(O)c1cn(C2CC2)c2c(F)c(N3CCN(CCO)CC3)c(Cl)cc2c1=O | - | 422 | MIC | 0.5 µg/mL

The last 2 rows once more:

SMILES | method | strain | read-out | value
CN(C)c1ccc(O)c2c1C[C@H]1C[C@H]3[C@H](N(C)C)C(=O)C(C(N)=O)=C(O)[C@@]3(O)C(=O)C1=C2O | - | 25 strains (methicillin-susceptible) | MIC90 | 0.12 µg/mL
O=C(O)c1cn(C2CC2)c2c(F)c(N3CCN(CCO)CC3)c(Cl)cc2c1=O | - | 422 | MIC | 0.5 µg/mL

An empty or dashed field is not shown. A number after MIC or MFC names an inhibition level or a share of isolates. Neighbouring rows are from separate reports.